Human monoclonal antibodies against the spike receptor-binding domain (heavy:light variable regions). IC50 against pseudoviruses bearing the spike of naturally observed variants; lower = stronger; >10 µg/ml means not reached at the top dose. No active / inactive call. The stated detection limit is 0.0005 µg/ml; values near or below 0.001 µg/ml lie at the floor of the assay.

Experiment in all cases: pseudovirus neutralization IC50; higher = weaker neutralization
For assay [1], the target named is SARS-CoV-2 Omicron BA.1 spike pseudovirus. How it is done:
(§1)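 Single-round VSV luciferase pseudovirus mixed with antibody dilutions for 1 h and put on Huh-7 cells for about a day; IC50 from the dose curve.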

Assay [2] has as its target SARS-CoV-2 Omicron BA.2 spike pseudovirus. How it is done: as §1
Assay [3] deals with SARS-CoV-2 Omicron BA.2.75 spike pseudovirus. How it is done: as §1
Assay [4] deals with SARS-CoV-2 Omicron BA.5 spike pseudovirus. As for the experimental part: as §1
Assay [5] concerns the target SARS-CoV-2 Omicron BQ.1.1 spike pseudovirus. As for the experimental part: as §1
Assay [6] concerns the target SARS-CoV-2 Omicron XBB spike pseudovirus. How it is done:
as §1

The target in assay [7] is SARS-CoV-2 early D614G spike pseudovirus. How it is done:
as §1

B1: BD55-3300 (protein)
chain 1: EVQLLESGGGLVQPGGSLRLSCAVSGFMFSRYAMTWGRQAPGKGLEWVASSGGYGGDTYYADSVKGRFTISRDNSKNTLFLQMNSLRAEDTAVYYCAKGSRSNPDYFESWGQGTLVTVSS
chain 2: DIQMTQSPSTLSASVGDRVTITCRASQSITNWLAWYQQKPGKAPKLLIYDVSILESGVPSRFSGSGSGTEFTLTISSLQPDDFATYYCQQYNSYSPLTFGGGTKVEIK
Regarding B1, the “pseudovirus neutralization IC50” value in assay [1] is 4.56 µg/mL; in assay [2], 3.56 µg/mL; in assay [3], 1.96 µg/mL; in assay [4] it was 5.13 µg/mL; in assay [5], above 10 µg/mL; in assay [6], above 10 µg/mL. For the same molecule, the “pseudovirus neutralization IC50” value in assay [7] is above 10 µg/mL.

B2: BD55-3149 (protein)
chain 1: QVRLVESGGGVVQPGRSLRLSCATSGFSFSTYAMHWVRQAPGKGLEWLAVVSFDGRNKYHADSVKGRFTVSRDNSKNTLYLQMMSLRPEDTAVYYCAKEVNYGSGSYENEGRLDYWGQGTLVTVSS
chain 2: DIQMTQSPSSLSASVGDRVTITCRASQTITKYLNWYQQKPGKAPKLLIFATSTLETGVPSRFSGSGSGTDFTLTITNLQPEDFATYYCQETHSLPWTFGQGTKVEI
Take B2: the “pseudovirus neutralization IC50” value in assay [1], in assay [2], in assay [3], in assay [4], in assay [5] and in assay [6] was above 10 µg/mL each time. Besides, the “pseudovirus neutralization IC50” value in assay [7] worked out at 0.595 µg/mL.

B3: BD55-3370 (protein)
chain 1: QVQLQESGPGLVKPSETLSLTCTVSGGSMTIYHWSWIRQPPGKALEWIGYIFYTGDTNYNPSLKSRVTMSVDTSKNQFSLGLSSVTAADTAVYYCARGSSGWYKGGSYLYFMDVWGQGTTVTVSS
chain 2: DIQMTQSPSTLSASVGDRVTITCRASQTISAWLAWYQQKPGKAPKLLIYGASSLESGVPSRFSGSGSGTEFTLTISSLQSDDFATYYCQQYDTSPLTFGGGTKVEIK
Consider B3, for which the “pseudovirus neutralization IC50” value in assay [1] was 6.39 µg/mL; in assay [2], 7.52 µg/mL; in assay [3] it was 4.52 µg/mL; in assay [4], above 10 µg/mL; in assay [5], above 10 µg/mL; in assay [6], above 10 µg/mL. The “pseudovirus neutralization IC50” value in assay [7] turned out to be 8.55 µg/mL.

B4: DH1117 (protein)
chain 1: EVQLVESGGGLVQPGGFLRLSCSASGFSFRTYSMHWVRQAPGKGLEHVSAISRNGDITYYADSMEGRFTISRDNSKNTLYLQMSSLRPEDTAVYYCVKDKVTTIFDVFDLWGQGTMVTVSS
chain 2: DIQMTQSPASLSASVGDRVTITCRASQSVNIYLNWYQQKPGKAPTLLIHGASSLQTGVPSRFSGSGSGTDFTLTISSLQPEDFATYYCQQSYSPPRTFGQGTKVEIR
On to B4, for which the “pseudovirus neutralization IC50” value in assay [1], in assay [2], in assay [3], in assay [4], in assay [5] and in assay [6] was above 10 µg/mL throughout. In addition, the “pseudovirus neutralization IC50” value in assay [7] was above 10 µg/mL.

B5: DH1088 (protein)
chain 1: EVQLVESGGGLVQPGRSLRLSCVASGFSPGDYAMHWVRQAPGKGLEWVSGISWNSVSIDYADSVKGRFTISRDNAKNSLYLQMNSLRPEDTALYYCARGGFKSGFYIHGMDVWGQGTTVTVSS
chain 2: QSALTQPASVSGSPGQSITISCTGTSSDIGDYDYVSWYQQHPGKAPKLLIYDVTYRPSGVSNLFSGSKSGNTASLTISGLQAEDEAVYYCSSYTTSNTLVFGGGTKLTVL
As for B5, the “pseudovirus neutralization IC50” value in assay [1], in assay [2], in assay [3], in assay [4], in assay [5] and in assay [6] was above 10 µg/mL each time. Moreover, in assay [7], the “pseudovirus neutralization IC50” value was above 10 µg/mL.

B6: BD55-3440 (protein)
chain 1: QVQLVQSGAEVKKPGSSVKVSCKASGDTFSSFAINWVRQAPGQGLEWIGRITPVLNIPHYAQRFQGRVTITADKSTSTAYMELSSLRSDDTAVYYCARVVLSKYQPPRGYYYYAMDVWGQGTTVTVSS
chain 2: SYELTQPPSVSVSPGQTATITCSGDALPKEYAYWYQKKPGQAPVLVMSKDSERPSGIPERFSGSSSGTTVTLTISGVQAEDEADYYCQSADIGGPSVIFAGGTKLTVL
On to B6, for which the “pseudovirus neutralization IC50” value in assay [1] is above 10 µg/mL; in assay [2] it was 5.04 µg/mL; in assay [3], above 10 µg/mL; in assay [4], 6.9 µg/mL; in assay [5], above 10 µg/mL; in assay [6], above 10 µg/mL. The “pseudovirus neutralization IC50” value in assay [7] was found to be 0.154 µg/mL.

B7: BD55-2314 (protein)
chain 1: QIQLVQSGVELKKPGASVKVSCKASGYTFLSYGISWVRQAPGQGLEWMGWFSGDNGDTQYAQNFQGRVTMTADTSTSTAYMEMRSLRTDDTAVYYCASRRFGELTLEFWGQGTLVTVSS
chain 2: EVVLTQSPATLSVSPGERATLSCRASQSVSTYLAWYQQKPGQAPRLLIYDASTRAASTPTRFSGSGSGTEFTLTISSLQSEDLALYHCQQYSDWPSNTFGQGTKLEIK
Regarding B7, the “pseudovirus neutralization IC50” value in assay [1], in assay [2], in assay [3], in assay [4], in assay [5] and in assay [6] was above 10 µg/mL each time. Further, the “pseudovirus neutralization IC50” value in assay [7] is above 10 µg/mL.

B8: BD55-3457 (protein)
chain 1: QVQLVQSGSELKKPGASVKVSCKASGYTFTSSAVHWVRQARGQGLEWMGWINTDTATPTYAQAFTGRFLFSLDTSVSTAYLQISSLKAEDTAVYYCARDRDLYERAFDVWGQGTRVNVSS
chain 2: EIVMTQSPATLSVSPGERAILSCRASQSVGSNFAWYQQKPGQAPRLLIFGASTRATGIPVRFSGSGSGTEFTLTISSLQSEDFAVYYCQQYNYWPLTFGGGTKVEIK
Regarding B8, the “pseudovirus neutralization IC50” value in assay [1] was 3.19 µg/mL; in assay [2], above 10 µg/mL; in assay [3], above 10 µg/mL; in assay [4] it was 5.54 µg/mL; in assay [5], above 10 µg/mL; in assay [6] it was above 10 µg/mL. The “pseudovirus neutralization IC50” value in assay [7] was 1.8 µg/mL.

B9: BD55-3304 (protein)
chain 1: QVQLVESGGGVVQPERSLRLSCAASGFIFSNYGMHWVRQAPGKGLEWVALIWYDGSNRYYADSVKGRFTISRDNSRNTLYLQMNSLRAEDTAMYYCAKSALRGYSGYDFFSRVSDEYYFDNWGQGTLVTVSS
chain 2: DIVMTQSPDSLAVSLGERATISCKSSQSVLYSSNNQNYLAWYQQKPGQPPKLLIKWASTRESGVPDRFSGSGSGTDFTLTITSLQAEDVAVYYCQQYFDTPHFGQGTKLEIK
In the case of B9, the “pseudovirus neutralization IC50” value in assay [1], in assay [2], in assay [3], in assay [4], in assay [5] and in assay [6] was above 10 µg/mL in each case. The “pseudovirus neutralization IC50” value in assay [7] worked out at 0.479 µg/mL.

B10: BD57-0412 (protein)
chain 1: QITLKESGPTLVKPTRTLTLTCTFSGFSLTTSGVGVGWIRQPPGKALEWLALIYWDGDERYSPSLKSRLTITKDTSKNQVVLTMTNMGPVDTATYYCGHHTIPTIFDYWGQGTLVTVSS
chain 2: QSALTQPASVSGSPGQSITISCTGAYSDVGAYNYVSWYQQHPGKAPKLVIYDVTNRPSGVSDRFSGSKSGYTASLTISGLQAEDEADYYCSSYTTSSLLVFGGGTKLTVL
For B10, the “pseudovirus neutralization IC50” value was 2.85 µg/mL in assay [1]; 0.00482 µg/mL in assay [2]; 3.34 µg/mL in assay [3]; 0.00399 µg/mL in assay [4]; above 10 µg/mL in assay [5]; above 10 µg/mL in assay [6]. For the same molecule, the “pseudovirus neutralization IC50” value in assay [7] worked out at 0.000243 µg/mL.

B11: BD55-3327 (protein)
chain 1: QVQLVESGGGVVQPGRSLRLSCAASGFTFSSYGMFWVRQAPGKGLEWVATVWFDGSSEYYADSVKGRFTISRDNSKKTLYLQMSSLRVEDTAVYYCARERTYYYGAQGGEFGGLDVWGHGTTVTVSS
chain 2: EIVLTQSPGTLSLSPGERATLSCRASQSVSSSYLAWYQQKPGQAPRLLIYDASSRATGIPDRFSGSGSGTDFTLTISRLEPEDFAVYYCQQYSSSWTFGQGTKVEIK
For B11, the “pseudovirus neutralization IC50” value was 9.48 µg/mL in assay [1]; 8.53 µg/mL in assay [2]; 8.27 µg/mL in assay [3]; 4.3 µg/mL in assay [4]; 3.05 µg/mL in assay [5]; 3.21 µg/mL in assay [6]. Also, in assay [7], the “pseudovirus neutralization IC50” value was determined as 7.31 µg/mL.

B12: BD-500 (protein)
chain 1: EVQLVESGGGLIQPGGSLRLSCAASGLTVSSNYMTWVRQAPGKGLEWVSVIYSGGSTFYADSVKGRFTISRHNSKNTLYLQMNSLRAEDTAVYYCARDAMSYGMDVWGQGTTVTVSS
chain 2: DIQMTQSPSSLSASVGDRVTITCRASQSISNFLNWYQQKPGKAPKLLIYAASSLQSGVPSRFSGSGSGTGFTLTISSLQPEDFATYYCQQSYSTPPDTFGQGTRLEIK
With B12, the “pseudovirus neutralization IC50” value in assay [1], in assay [2], in assay [3], in assay [4], in assay [5] and in assay [6] was above 10 µg/mL in each case. Also, the “pseudovirus neutralization IC50” value in assay [7] stood at 0.0754 µg/mL.

The record behind these values is the supplement of paper PMC9931576.
